Where “and” joins values, the source holds several entries; their conditions need not be identical. Equal entries are not always repeated. Structures can show the parent of a compound that is named as a salt.
Tested on: JEV strain AT31
Details: not given

Molecule | Inhibition (%)
brusatol | 24.3348
liquiritin apioside | 8.77
Isoeugenol | 1.471

Same assay, conditions: Primary screening of 1034 compounds in the natural extracts library

Molecule | Inhibition (%)
CCC/C=C1\OC(=O)C2=C1CC[C@@H](O)[C@@H]2O [Senkyunolide I] | 4.329%
COc1cc(C)c2c(=O)c(-c3ccccc3)coc2c1 [5-Methyl-7-methoxyisoflavone] | 50.4184%
COC[C@]12CN(C)[C@@H]3[C@@H]4[C@H](OC)[C@H]1[C@@]3([C@@H](OC)C[C@H]2O)[C@@H]1C[C@@]2(O)[C@H](OC(=O)c3ccccc3)[C@@H]1[C@]4(OC(C)=O)[C@@H](O)[C@@H]2OC [Mesaconitine] | 60.7058%
COc1ccc(-c2cc(=O)c3c(O)cc(OC)cc3o2)cc1 [7,4'-Di-O-methylapigenin] | 5.028%
COc1ccc(CCO[C@@H]2O[C@H](CO[C@@H]3OC[C@H](O)[C@H](O)[C@H]3O)[C@@H](OC(=O)/C=C/c3ccc(O)c(OC)c3)[C@H](O[C@@H]3O[C@@H](C)[C@H](O)[C@@H](O)[C@H]3O)[C@H]2O)cc1O [Angoroside C] | 6.999%
C[n+]1cc2c3c(ccc2c2ccc4cc5c(cc4c21)OCO5)OCO3.O=C([O-])CC(O)(CC(=O)O)C(=O)O [Sanguinarine citrate] | -65.5118%
COc1c(O[C@@H]2O[C@H](C(=O)O)[C@@H](O)[C@H](O)[C@H]2O)cc(O)c2c(=O)cc(-c3ccccc3)oc12 [Wogonoside] | -2.571%
C/C=C(/C)C(=O)O[C@@H]1[C@H](OC(=O)CC(C)C)c2c(ccc3ccc(=O)oc23)OC1(C)C [Praeruptorin C] | 92.2514%
COC(=O)C=Cc1ccc(O)cc1 [Methyl 4-hydroxycinnamate] | -4.744%
O=c1ccc2cc3ccoc3c(O)c2o1 [Xanthotol] | 2.061%
C[C@@H]1CC[C@@]2(OC1)O[C@H]1C[C@H]3[C@@H]4CC=C5C[C@@H](O[C@@H]6O[C@H](CO)[C@@H](O)[C@H](O)[C@H]6O[C@@H]6O[C@@H](C)[C@H](O)[C@@H](O)[C@H]6O)CC[C@]5(C)[C@H]4CC[C@]3(C)[C@@]1(O)[C@@H]2C [Polyphyllin VI] | 83.2782% and 63.6797%
Madecassoside | 10.1302%
CC1(C)[C@H](OC(=O)c2ccccc2)CC[C@]2(C)C3=C([C@@H](O)C[C@@H]12)[C@@]1(C)CC[C@@]2(C)CC[C@@](C)(COC(=O)c4ccccc4)C[C@H]2[C@]1(C)CC3 [3,29-Dibenzoyl Rarounitriol] | 37.212%
O=C(O)[C@H]1O[C@@H](Oc2cc(O)c3c(=O)cc(-c4ccc(O)cc4)oc3c2)[C@H](O)[C@@H](O)[C@@H]1O [Apigenin-7-O-glucuronide] | 5.863%
CC(C)=CCCC(C)(O)C1CCC2(C)C1C(O)CC1C3(C)CCC(O)C(C)(C)C3CCC12C (centres unmarked) [Protopanaxdiol] | 77.4457%
CN(C)c1ccc(N)cc1 [N,N-Dimethyl-1,4-phenylenediamine] | -236.384%
C[C@@H]1O[C@@H](O[C@H]2[C@H](O[C@H]3[C@H](O[C@H]4CC[C@]5(C)[C@H]6CC=C7[C@@H]8CC(C)(C)CC[C@]8(C(=O)O)CC[C@@]7(C)[C@]6(C)CC[C@H]5C4(C)C)OC[C@H](O)[C@@H]3O)O[C@H](CO)[C@@H](O)[C@@H]2O)[C@H](O)[C@H](O)[C@H]1O [Raddeanin A] | 21.1914%
Cc1c(O)c(C)c2c(c1O)C(=O)[C@H](Cc1ccc3c(c1)OCO3)CO2 [Methylophiopogonanone A] | -14.5068%
CCCC[C@@H]1OC(=O)C2=C1CCC=C2 [Senkyunolide A] | 6.997%

Molecule | Inhibition (%)
COc1cc2c(cc1O)C[C@@H]1NCCc3cc(OC)c(O)c-2c31 [Norisoboldine] | -2.363%
CC(C)=CCc1c(O)cc(O)c2c(=O)c(O[C@@H]3O[C@@H](C)[C@H](O)[C@@H](O)[C@H]3O)c(-c3ccc(O)cc3)oc12 [Baohuoside II] | -20.9028%
C[N+]1(C)CCC[C@H]1C(=O)[O-] [Stachydrine] | -5.7732%
C=C(C)[C@@H]1CC[C@]2(C(=O)O[C@@H]3O[C@H](CO[C@@H]4O[C@H](CO)[C@@H](O[C@@H]5O[C@@H](C)[C@H](O)[C@@H](O)[C@H]5O)[C@H](O)[C@H]4O)[C@@H](O)[C@H](O)[C@H]3O)CC[C@]3(C)[C@H](CC[C@@H]4[C@@]5(C)CC[C@H](O[C@@H]6OC[C@H](O)[C@H](O)[C@H]6O[C@@H]6O[C@@H](C)[C@H](O)[C@@H](O)[C@H]6O)[C@@](C)(CO)[C@@H]5CC[C@]43C)[C@@H]12 [Anemoside B4] | -18.6799%
CCCCCCC[C@H](O)CC(=O)CCc1ccc(O)c(OC)c1 [8-Gingerol] | -15.7251%
ophiopogonin D' | 95.8658%
O=C(CC(O)(CC(=O)OCc1ccc(O[C@@H]2O[C@H](CO)[C@@H](O)[C@H](O)[C@H]2O)cc1)C(=O)OCc1ccc(O[C@@H]2O[C@H](CO)[C@@H](O)[C@H](O)[C@H]2O)cc1)OCc1ccc(O[C@@H]2O[C@H](CO)[C@@H](O)[C@H](O)[C@H]2O)cc1 [Parishin A] | 28.9901%
C/C(=C/CC[C@]1(CO)CC[C@]2(C)[C@H](CC[C@@H]3[C@@]4(C)CC[C@H](O[C@@H]5O[C@H](CO)[C@@H](O)[C@H](O)[C@H]5O[C@@H]5OC[C@@H](O)[C@H](O)[C@H]5O)[C@@](C)(CO[C@@H]5O[C@H](CO)[C@@H](O)[C@H](O)[C@H]5O)[C@@H]4CC[C@]32C)[C@H]1O)CO [Hosenkoside G] | -7.077%
O=C(/C=C/c1ccc(O)c(O)c1)OC1CC(O)(C(=O)O)CC(O)C1OC(=O)/C=C/c1ccc(O)c(O)c1 (centres unmarked) | 86.3358%
O=C(/C=C/c1ccc(O)c(O)c1)OCCc1ccccc1 | 10.052%
COc1c(O[C@@H]2O[C@H](CO)[C@@H](O)[C@H](O)[C@H]2O)cc2oc(-c3ccc(O)cc3)cc(=O)c2c1O [Homoplantaginin] | -25.4311%
CCc1c2c(nc3ccccc13)-c1cc3c(c(=O)n1C2)COC(=O)[C@]3(O)CC [7-Ethylcamptothecin] | -69.3582%
OCC1=C[C@@H](O)[C@]2(O[C@@H]3O[C@H](CO)[C@@H](O)[C@H](O)[C@H]3O)C=CO[C@@H](O[C@@H]3O[C@H](CO)[C@@H](O)[C@H](O)[C@H]3O)[C@H]12 [Melittoside] | -7.07%
CC(=O)OC/C=C/c1ccccc1 [Cinnamyl acetate] | -9.255%
O=C(O)CCC(=O)O [Butanediacid] | 0.1245%
Cc1nc(C)c(C)nc1C.Cl [Ligustrazine Hydrochloride] | 20.4054%
CC(C)=C1C/C=C(\C)CC/C=C(\C)CC1=O [Germacrone] | 9.945%
O=c1c(O[C@@H]2O[C@H](CO)[C@@H](O)[C@H](O)[C@H]2O)c(-c2ccc(O)c(O)c2)oc2cc(O[C@@H]3O[C@H](CO[C@@H]4O[C@H](CO)[C@@H](O)[C@H](O)[C@H]4O)[C@@H](O)[C@H](O)[C@H]3O)cc(O)c12 | -6.999%
COc1ccc2ccc(=O)oc2c1 [7-Methoxycoumarin] | -3.6673%

Molecule | Inhibition (%)
CC1OC2OC3C(OCC(O)C3O)OC(=O)C34CCC(C)(C)CC3C3=CCC5C6(C)CC(O)C(OC7OC(CO)C(O)C(O)C7OC7OCC(OC(=O)CC(C)(O)CC(=O)OC1C(OC1OCC(O)C(O)C1O)C2O)C(O)C7O)C(C)(CO)C6CCC5(C)C3(C)CC4O (centres unmarked) [TubeiMoside II] | -2.287%
CC(=O)O[C@H]1Cc2cc3c(cc2[C@H]2N(C)Cc4c(ccc5c4OCO5)[C@@]12C)OCO3 [Acetylcorynoline] | 19.5944%
C[C@H]1CC[C@@]2(O)C(C)(C)[C@@H]3CC[C@@]2(C)[C@H]1C3 [Patchouli alcohol] | 99.3924%
OC[C@@H](O)[C@@H](O)[C@H](O)[C@H](O)CO [Mannitol] | 99.5413%
COc1ccc([C@@H]2CC(=O)c3c(O)cc(O[C@@H]4O[C@H](CO[C@@H]5O[C@@H](C)[C@H](O)[C@@H](O)[C@H]5O)[C@@H](O)[C@H](O)[C@H]4O)cc3O2)cc1 [Didymin] | -2.726%
COc1cc2c(cc1O)CCN1Cc3c(ccc(OC)c3OC)C[C@H]21 [(R)-(+)-Corypalmine] | 2.107%
O=C1C=CC(=O)c2c(O)cccc21 [5-Hydroxy-1,4-naphthalenedione] | 92.5916%
CC(=O)O[C@H]1[C@H](OCCc2ccc(O)c(O)c2)O[C@H](CO)[C@@H](OC(=O)/C=C/c2ccc(O)c(O)c2)[C@@H]1O[C@@H]1O[C@@H](C)[C@H](O)[C@@H](O)[C@H]1O [2-Acetylacteoside] | 1.528%
COc1ccc2cc3[n+](cc2c1OC)CCc1cc(O)c(O)cc1-3 [DeMethyleneberberine] | 11.2398%
Cc1cc(O)cc(O[C@@H]2O[C@H](CO[C@@H]3O[C@H](CO)[C@@H](O)[C@H](O)[C@H]3O)[C@@H](O)[C@H](O)[C@H]2O)c1 [Orcinol Gentiobioside] | -9.451%
Stevenleaf | -22.5425%
COc1ccccc1C=CC(=O)O [2-Methoxycinnamic acid] | -0.2094%
COc1cc2c3cc1Oc1c(OC)c(OC)cc4c1[C@@H](Cc1ccc(O)c(c1)Oc1ccc(cc1)C[C@@H]3N(C)CC2)N(C)CC4 [Berbamine dihydrochloride] | 68.0635%
Hecogenin | 0.5384%
C=C1C[C@]2(O)O[C@@]3(CC2=C(C)C)[C@@H](C)CC[C@@H]13 [isourecumenol] | 3.754%
Astragaloside I | -4.592%
COc1c(O[C@@H]2O[C@H](C(=O)O)[C@@H](O)[C@H](O)[C@H]2O)cc2oc(-c3ccccc3)cc(=O)c2c1O [Oroxylin A 7-O-glucuronide] | 5.69%
COc1cc2c(c(OC)c1OC)-c1c(cc(OC)c(OC)c1OC)C[C@@](C)(O)[C@@H](C)C2 [Schisandrol A] | 39.0598%
Worenine | -4.039%

Same assay, conditions: primary screening of 1034 compounds in the natural extracts library; red numbers = obvious cytotoxicity, blue numbers = insoluble in DMSO (colours not visible)

Molecule | Inhibition (%)
C[C@@H]1O[C@@H](OC[C@H]2O[C@@H](Oc3cc(O)c4c(=O)cc(-c5ccc(O)cc5)oc4c3)[C@H](O[C@@H]3O[C@@H](C)[C@H](O)[C@@H](O)[C@H]3O)[C@@H](O)[C@@H]2O)[C@H](O)[C@H](O)[C@H]1O [ligustroflavone] | 16.4909
O=Cc1ccc(O)c(O)c1 [protocatechuicaldehyde] | 7.9473

Source: publication PMC7038234, “Screening of Natural Extracts for Inhibitors against Japanese Encephalitis Virus Infection” (Antimicrobial Agents and Chemotherapy, 2020)
